Measured values from several laboratories, pooled; numbers as filed in NIAID ChemDB.

All rows: tests in culture; agent: Candida albicans

ECn: concentration that inhibits the pathogen or its effect by n%.

structure,endpoint,method,strain,value
COc1c2ccoc2cc2oc(=O)ccc12,MIC,,ATCC 14053,250 µg/mL
CCCCCCCCCCCCOC(C)=O,MIC,,,>100 µg/mL
OC(Cn1cncn1)(Cn1cncn1)c1ccc(F)cc1F,EC50,agar diffusion / agar,75 strains,<15 µg/mL
COc1cc2ccc(=O)oc2cc1O,MIC,,ATCC 14053,500 µg/mL
CC(C)C12CCC(C)(CC1)O2,MIC50,broth dilution,ATCC 90028,>8000 µg/mL
Cc1ccc(Sc2nc3ccc(C)cc3cc2C2C(C#N)=C(N)Oc3cc(C)oc(=O)c32)cc1,MIC,broth dilution,MTCC 227,500 µg/mL
CCC[C@H](N)[C@@H]1CCN(c2c(F)cn3c(=O)c(C(=O)O)cc(C4CC4)c3c2C)C1.Cl,MIC,,CCH442,6.2 µg/mL
Cc1cc2c(c(=O)o1)C(c1cc3ccccc3nc1Sc1ccccc1)C(C#N)=C(N)O2,MIC,broth dilution,MTCC 227,250 µg/mL
O=Cc1ccco1,MIC99.9,broth dilution,ATCC 90028,1000 µg/mL
O=C1C(Sc2ccc(F)cc2)=CC(=O)c2c(O)cccc21,MIC,,,2 µg/mL
CN1Cc2c(ccc3c2OCO3)-c2ccc3cc4c(cc3c21)OCO4,MIC,,ATCC 10231,18.7 µg/mL
CCCCCCCCCCCCN(C)C,MIC,,,109 µg/mL
Cc1c(N2CCC(CCO)CC2)c(F)cn2c(=O)c(C(=O)O)cc(C3CC3)c12,MIC,,CCH442,>100 µg/mL
Cc1ccc(Sc2nc3ccccc3cc2C2C(C#N)=C(N)Oc3cc(C)oc(=O)c32)cc1,MIC,broth dilution,MTCC 227,1000 µg/mL
COc1cccc2c1C(=O)C=C(Sc1ccc(Cl)cc1)C2=O,MIC,,,16 µg/mL
CC(C)=CCC/C(C)=C/CO,MIC50,broth dilution,ATCC 90028,4000 µg/mL
Cc1ccc(SC2=CC(=O)c3cccc(O)c3C2=O)cc1,MIC,,,4 µg/mL
CC(=O)Oc1ccc2oc(=O)ccc2c1,MIC,,ATCC 14053,500 µg/mL
CCCCCCCCCCCC=O,MIC,,,136 µg/mL
Cc1c(N2CCCC(CF)C2)c(F)cn2c(=O)c(C(=O)O)cc(C3CC3)c12,MIC,,CCH442,>100 µg/mL
Cn1c(=O)c2c(ncn2C)n(C)c1=O,MIC50,broth dilution,ATCC 90028,4000 µg/mL
O=C1C=C(Sc2ccccc2F)C(=O)c2c(O)cccc21,MIC,,,64 µg/mL
Cc1c(N2CC[C@@H]([C@H](C)N)C2)c(F)cn2c(=O)c(C(=O)O)cc(C3CC3)c12,MIC,,CCH442,>100 µg/mL
CCCCCCCCCCCCO,MIC,,,135 µg/mL
COc1cccc2c1C(=O)C(Sc1ccc(Cl)cc1)=CC2=O,MIC,,,2 µg/mL
Cc1c(N2CCC3CNCC32)c(F)cn2c(=O)c(C(=O)O)cc(C3CC3)c12,MIC,,CCH442,>100 µg/mL
Cc1ccc(SC2=C(Sc3ccc(C)cc3)C(=O)c3c(O)cccc3C2=O)cc1,MIC,,,32 µg/mL
CC(=O)N1CCN(c2ccc(OC[C@H]3CO[C@](Cn4ccnc4)(c4ccc(Cl)cc4Cl)O3)cc2)CC1,EC50,agar diffusion / agar,75 strains,>15 µg/mL
C=CC(C)(O)CCC=C(C)C,MIC50,broth dilution,ATCC 90028,8000 µg/mL
O=C1C(Sc2ccc(Cl)cc2)=C(Sc2ccc(Cl)cc2)C(=O)c2c(O)cccc21,MIC,,,4 µg/mL
CCCCCCCC(=O)O,MIC,,,>1000 µg/mL
O=c1ccc2cc(C(O)O)ccc2o1,MIC,,ATCC 14053,1000 µg/mL
CCc1cc(C(=O)O)c(=O)n2cc(F)c(N3CCC(N)C3)c(C)c12.Cl,MIC,,CCH442,>100 µg/mL
C[C@@H]1[C@H](O)[C@@H](C)/C=C/C=C/CC/C=C/C=C/C=C/C=C/C(O[C@H]2O[C@H](C)[C@@H](O)[C@H](N)[C@@H]2O)CC2O[C@](O)(CC(O)C(O)CCC(O)CC(O)CC(O)CC(=O)O[C@H]1C)CC(O)C2C(=O)O,MFC100,broth dilution,ICM 12,64 µg/mL
Nc1nc(=O)n([C@H]2CS[C@@H](CO)O2)cc1F,MIC50,,4054 strains (fluconazole-susceptible),0.5 µg/mL
O=c1ccc2cc(Cl)ccc2o1,MIC,,ATCC 14053,500 µg/mL
Cc1ccc(SC2=CC(=O)c3c(O)cccc3C2=O)cc1,MIC,,,4 µg/mL
C=C(C)C1CCC(C)CC1O,MIC99.9,broth dilution,ATCC 90028,>8000 µg/mL
CCC(C)n1ncn(-c2ccc(N3CCN(c4ccc(OC[C@H]5CO[C@](Cn6cncn6)(c6ccc(Cl)cc6Cl)O5)cc4)CC3)cc2)c1=O,EC50,agar diffusion / agar,75 strains,<10 µg/mL
C[C@@H](c1nc(-c2ccc(C#N)cc2)cs1)[C@](O)(Cn1cnnc1)c1ccc(F)cc1F,MIC,,A28976,>16 µg/mL
Cc1ccc2nc(Sc3ccccc3)c(C3C(C#N)=C(N)Oc4cc(C)oc(=O)c43)cc2c1,MIC,broth dilution,MTCC 227,1000 µg/mL
Cc1c(N2C[C@@H](CN)[C@H](C(F)(F)F)C2)c(F)cn2c(=O)c(C(=O)O)cc(C3CC3)c12,MIC,,CCH442,>100 µg/mL
CCCCCCCCCCCC(=O)OCC(O)CO,MIC,,,90 µg/mL
Cc1c(N2CC[C@@H](N(C)C)C2)c(F)cn2c(=O)c(C(=O)O)cc(C3CC3)c12,MIC,,CCH442,>100 µg/mL
CC1=CC[C@@H]2C[C@H]1C2(C)C,MIC50,broth dilution,ATCC 90028,8000 µg/mL
C[C@@H](c1nc(-c2ccc(C#N)cc2)cs1)[C@](O)(Cn1cncn1)c1ccc(F)cc1F,MIC90,,85 strains (fluconazole-resistant),>8 µg/mL
Cc1c(N2CCC(C(C)(C)N)C2)c(F)cn2c(=O)c(C(=O)O)cc(C3CC3)c12,MIC,,CCH442,>100 µg/mL

7 of the rows above, restated:

structure	endpoint	method	strain	value
C[C@@H]1[C@H](O)[C@@H](C)/C=C/C=C/CC/C=C/C=C/C=C/C=C/C(O[C@H]2O[C@H](C)[C@@H](O)[C@H](N)[C@@H]2O)CC2O[C@](O)(CC(O)C(O)CCC(O)CC(O)CC(O)CC(=O)O[C@H]1C)CC(O)C2C(=O)O	MFC100	broth dilution	ICM 12	64 µg/mL
CCCCCCCC(=O)O	MIC			>1000 µg/mL
Cc1c(N2CC[C@@H](N(C)C)C2)c(F)cn2c(=O)c(C(=O)O)cc(C3CC3)c12	MIC		CCH442	>100 µg/mL
CCC[C@H](N)[C@@H]1CCN(c2c(F)cn3c(=O)c(C(=O)O)cc(C4CC4)c3c2C)C1.Cl	MIC		CCH442	6.2 µg/mL
CCCCCCCCCCCCOC(C)=O	MIC			>100 µg/mL
COc1c2ccoc2cc2oc(=O)ccc12	MIC		ATCC 14053	250 µg/mL
Cc1ccc(Sc2nc3ccc(C)cc3cc2C2C(C#N)=C(N)Oc3cc(C)oc(=O)c32)cc1	MIC	broth dilution	MTCC 227	500 µg/mL

An empty or dashed field is not shown. A number after MIC or MFC names an inhibition level or a share of isolates. Lines come from different laboratories, so protocols vary.